Source: US20040116523A1, “Use of c4-c10 acids for preventing gram-negative bacterial infections” (priority 2000, published 2004)

System: Salmonella
Assay: Fatty acid substrate for Salmonella

| Compound | Fatty acid substrate for Salmonella |
| --- | --- |
| CCCCCCC(N)C(=O)O (stereo not drawn) [2-Aminocaprylic acid] | No |
| CCCCCCC(O)C(=O)O (stereo not drawn) [2-Hydroxycaprylic acid] | No |
| NCCCCCCCC(=O)O [8-Aminocaprylic acid] | No |
| O=C(O)CCCCCCCO [8-Hydroxycaprylic acid] | No |
| CC(=O)O [Acetic acid] | Yes |
| CCCC(=O)O [Butyric acid] | No |
| CCCCCC(=O)O [Caproic acid] | No |
| CCCCCCC(=O)O [Oenanthic acid] | No |
| CCCCCCCCC(=O)O [Pelargonic acid] | No |
| CCC(=O)O [Propionic acid] | Yes |
| CCCCC(=O)O [Valeric acid] | No |
| CCCCCCCC(=O)[O-].[Na+] [sodium caprylate] | No |
